Anti-infective test results gathered from many reports (values: NIAID ChemDB through PubChem).

Shared fields: tests in culture; organism: Mycobacterium avium complex

A number after MIC or MFC names an inhibition level or a share of isolates.

structure	strain	measure	value
CC[C@H]1OC(=O)[C@H](C)[C@@H](OC(=O)Cc2ccncc2)[C@H](C)[C@@H](O[C@@H]2O[C@H](C)C[C@H](N(C)C)[C@H]2O)C(C)(O)C[C@@H](C)/C(=N\OCCCOc2ccccc2)[C@H](C)[C@@H](O)[C@]1(C)O	20092 (clarithromycin-resistant)	MIC	25 µg/mL
CO[C@H]1/C=C/O[C@@]2(C)Oc3c(C)c(O)c4c(O)c(c5c(c4c3C2=O)NC2(CCN(CC(C)C)CC2)N=5)=NC(=O)/C(C)=C\C=C\[C@H](C)[C@H](O)[C@@H](C)[C@@H](O)[C@@H](C)[C@H](OC(C)=O)[C@@H]1C	1408-2	MIC	0.25 µg/mL
Cc1cccc(CSc2ncnc3nc[nH]c23)c1	NJ211	MIC	>12.8 µg/mL
NC[C@H]1O[C@H](O[C@H]2[C@H](O)[C@@H](O[C@H]3O[C@H](CO)[C@@H](O)[C@H](N)[C@H]3O)[C@H](N)C[C@@H]2N)[C@H](O)[C@@H](O)[C@@H]1O	25 isolates	MIC50	8 µg/mL
CC[C@H]1OC(=O)[C@H](C)[C@@H](O[C@H]2C[C@@](C)(OC)[C@@H](O)[C@H](C)O2)[C@H](C)[C@@H](O[C@@H]2O[C@H](C)C[C@H](N(C)C)[C@H]2O)[C@](C)(O)C[C@@H](C)C(=O)[C@H](C)[C@@H](O)[C@]1(C)O	28 strains	MIC90	≥64 µg/mL
C[C@@H]1CN(c2c(F)c(N)c3c(=O)c(C(=O)O)cn(C4CC4)c3c2F)C[C@H](C)N1	N-269 (HIV-)	MIC	4 µg/mL
CCc1nc(N)nc(N)c1-c1ccc(Cl)cc1	DW16	MIC	64 µg/mL
Clc1nc(Sc2ccc3ccccc3n2)c2[nH]cnc2n1.O	NJ211	MIC	>12.8 µg/mL
O=C(NCCCl)N1CCC(CN=c2cc3n(-c4ccc(Cl)cc4)c4ccccc4nc-3cc2Nc2ccc(Cl)cc2)CC1	5 strains	MIC50	1 µg/mL
CCCCCCCCO[C@@H]1O[C@@H](C(COCc2ccccc2)O[C@@H]2O[C@@H](C(COC(C)=O)OC(C)=O)[C@H](OC(C)=O)[C@H]2OC(C)=O)[C@H](OCc2ccccc2)[C@H]1OCc1ccccc1	NJ3404	MIC	>128 µg/mL
CC[C@H]1OC(=O)[C@H](C)[C@@H](O[C@H]2C[C@@](C)(OC)[C@@H](O)[C@H](C)O2)[C@H](C)[C@@H](O[C@@H]2O[C@H](C)C[C@H](N(C)C)[C@H]2O)[C@](C)(OC)C[C@@H](C)C(=O)[C@H](C)[C@@H](O)[C@]1(C)O	ATCC 13950	MIC	1 µg/mL
COc1ccc(/C(C)=N/NC(N)=S)cc1	100	MIC	0.125 µg/mL
Cc1c(CNc2ccc3ccc4cccc5ccc2c3c45)cnc2nc(N)nc(N)c12	NJ211	MIC	≤0.13 µg/mL
O=c1nc(SCc2ccc(Cl)cc2[N+](=O)[O-])c2[nH]cnc2[nH]1	NJ211	MIC	>12.8 µg/mL
CC(C)N=c1cc2n(-c3ccc(Cl)cc3)c3ccccc3nc-2cc1Nc1ccc(Cl)cc1	1625	MBC	2 µg/mL
CC[C@H]1OC(=O)C[C@@H](O)[C@H](C)[C@@H](O[C@@H]2O[C@H](C)[C@H](O[C@H]3C[C@@](C)(O)[C@@H](O)[C@H](C)O3)[C@H](N(C)C)[C@H]2O)[C@@H](CC=O)C[C@@H](C)C(=O)/C=C/C(C)=C/[C@@H]1CO	28 strains	MIC50	16 µg/mL
CC[C@H]1OC(=O)[C@H](C)[C@@H](O[C@H]2C[C@@](C)(OC)[C@@H](O)[C@H](C)O2)[C@H](C)[C@@H](O[C@@H]2O[C@H](C)C[C@H](N(C)C)[C@H]2O)[C@](C)(O)C[C@@H](C)CN(C)[C@H](C)[C@@H](O)[C@]1(C)O	K	MIC	8 µg/mL
Cc1cc(C)nc(NS(=O)(=O)c2ccc(N)cc2)n1	101	MIC	>128 µg/mL
Cc1noc(NS(=O)(=O)c2ccc(N)cc2)c1C	D-3	MIC	25 µg/mL
CCCCNC(=O)OCCN=c1ssc2ccccc12	ATCC 15769	MIC	4 µg/mL
C[C@@H]1CN(c2c(F)c(N)c3c(=O)c(C(=O)O)cn(C4CC4)c3c2F)C[C@H](C)N1	Isolate 90-0779	MBC	1 µg/mL
COc1ccc(NCc2cnc3nc(N)nc(N)c3c2C)cc1OC	NJ211	MIC	≤0.13 µg/mL
CN1CCN(CCCN=c2cc3n(-c4ccc(Cl)cc4)c4ccccc4nc-3cc2Nc2ccccc2)CC1	10 strains (HIV+)	MIC90	3.3 µg/mL
CC[C@H]1OC(=O)[C@H](C)[C@@H](O[C@H]2C[C@@](C)(OC)[C@@H](O)[C@H](C)O2)[C@H](C)[C@@H](O[C@@H]2O[C@H](C)C[C@H](N(C)C)[C@H]2O)[C@](C)(OC)C[C@@H](C)C(=O)[C@H](C)[C@@H](O)[C@]1(C)O	28 strains	MIC50	2 µg/mL
CCCNC(=O)OCCn1sc2ccccc2c1=S	ATCC 15769	MIC	4 µg/mL
COc1ccc(NCc2cnc3nc(N)nc(N)c3c2C)cc1F	NJ211	MIC	≤0.13 µg/mL
CC(C)N=C(N)/N=C(\N)Nc1ccc(Cl)cc1	FAR	MIC	64 µg/mL
COc1ccccc1CSc1ncccn1	NJ211	MIC	>12.8 µg/mL
OCCn1sc2ccccc2c1=S	AN3	MIC	2 µg/mL
CCCCCCCCCCNNC(=O)O[C@H]1[C@H](O[C@@H]2[C@@H](C)[C@H](O[C@H]3C[C@@](C)(OC)[C@@H](OC(C)=O)[C@H](C)O3)[C@@H](C)C(=O)O[C@H](CC)[C@@](C)(O)[C@H](O)[C@@H](C)/C(=N/OCCCC3CCCCC3)[C@H](C)CC2(C)O)O[C@H](C)C[C@@H]1N(C)C	20096 (clarithromycin-resistant)	MIC	>50 µg/mL
NNC(=O)c1ccncc1	13-2732	MIC	0.32–0.4 µg/mL
Cc1ccc(Sc2nc(Cl)nc3nc[nH]c23)cc1	NJ211	MIC	>12.8 µg/mL
CCCCCCCCOC1OC([C@H](CO)OC2O[C@@H](C(O)CO)[C@H](O)[C@H]2O)[C@H](O)[C@H]1O	NJ168	MIC	>128 µg/mL
CC(C)NC(=O)OCCN=c1ssc2ccccc12	AN2	MIC	4 µg/mL
Cc1c(Cl)cccc1NCc1cnc2nc(N)nc(N)c2c1C	NJ168	MIC	≤0.13 µg/mL
CC[C@H]1OC(=O)[C@H](C)[C@@H](O[C@H]2C[C@@](C)(OC)[C@@H](OC(C)=O)[C@H](C)O2)[C@H](C)[C@@H](O[C@@H]2O[C@H](C)C[C@H](N(C)C)[C@H]2OC(=O)NNCCCc2ccccc2)C(C)(O)C[C@@H](C)/C(=N\OCCCC2CCCCC2)[C@H](C)[C@@H](O)[C@]1(C)O	20039 (clarithromycin-susceptible)	MIC	0.78 µg/mL
CO[C@H]1/C=C/O[C@@]2(C)Oc3c(C)c(O)c4c(=O)c(c5oc6cc(N7CCN(CC(C)C)CC7)cc(=O)c6nc5c4c3=C2O)NC(=O)/C(C)=C\C=C\[C@H](C)[C@H](O)[C@@H](C)[C@@H](O)[C@@H](C)[C@H](OC(C)=O)[C@@H]1C	N-259 (HIV-)	MIC	0.0313 µg/mL
Cc1c(CNc2ccc3c4c(cccc24)-c2ccccc2-3)cnc2nc(N)nc(N)c12	NJ211	MIC	≤0.13 µg/mL
CC[C@H]1OC(=O)[C@H](C)[C@@H](O[C@H]2C[C@@](C)(OC)[C@@H](O)[C@H](C)O2)[C@H](C)[C@@H](O[C@@H]2O[C@H](C)C[C@H](N(C)C)[C@H]2O)[C@](C)(O)C[C@@H](C)/C(=N\OCOCCOC)[C@H](C)[C@@H](O)[C@]1(C)O	28 strains	MIC50	8 µg/mL
CO[C@H]1/C=C/O[C@@]2(C)Oc3c(C)c(O)c4c(O)c(c5c(c4c3C2=O)NC2(CCN(CC(C)C)CC2)N=5)=NC(=O)/C(C)=C\C=C\[C@H](C)[C@H](O)[C@@H](C)[C@@H](O)[C@@H](C)[C@H](OC(C)=O)[C@@H]1C	N-316 (HIV-)	MIC	0.2 µg/mL
CC1(C)N=C(N)N=C(N)N1OCCCOc1cc(Cl)c(Cl)cc1Cl	DW20	MIC	1 µg/mL
NC[C@@H]1O[C@H](O[C@H]2[C@@H](O)[C@H](O[C@@H]3[C@@H](O)[C@H](N)C[C@H](N)[C@H]3O[C@H]3O[C@H](CN)[C@@H](O)[C@H](O)[C@H]3N)O[C@@H]2CO)[C@H](N)[C@@H](O)[C@@H]1O	25 isolates	MBC90	>64 µg/mL
CCCCNC(=O)OCCn1sc2ccccc2c1=S	ISS 486	MIC	4 µg/mL
NC[C@H]1O[C@H](O[C@H]2[C@H](O)[C@@H](O[C@H]3O[C@H](CO)[C@@H](O)[C@H](N)[C@H]3O)[C@H](N)C[C@@H]2N)[C@H](N)C[C@@H]1O	25 isolates	MIC50	16 µg/mL
CCC(=O)O[C@H]1[C@H](C)[C@@H](O[C@@H]2O[C@H](C)C[C@H](N(C)C)[C@H]2O)C(C)(O)C[C@@H](C)/C(=N\OCCCOc2ccccc2)[C@H](C)[C@@H](O)[C@](C)(O)[C@@H](CC)OC(=O)[C@@H]1C	20039 (clarithromycin-susceptible)	MIC	12.5 µg/mL
CCCN(CCC)CC[C@H]1C[C@@H](C)C(=O)/C=C/C(C)=C/[C@H](COC2O[C@H](C)[C@@H](O)[C@@H](OC)[C@H]2OC)[C@@H](CC)OC(=O)C[C@@H](O)[C@H](C)[C@H]1O[C@@H]1O[C@H](C)[C@H](O)[C@H](N(C)C)[C@H]1O	28 strains	MIC50	≥64 µg/mL
CC(C)NC(=O)OCCn1sc2ccccc2c1=S	AN1	MIC	2 µg/mL
COc1cccc2c1[n+]([O-])c1cccc(O)c1[n+]2[O-]	5 strains	MIC50	0.125 µg/mL
O=c1c2ccccc2sn1CCO	AN2	MIC	>32 µg/mL
CC(C)N=C(N)/N=C(\N)NOCCCOc1cc(Cl)c(Cl)cc1Cl	W7547	MIC	32 µg/mL
Cc1ccc(NCc2cnc3nc(N)nc(N)c3c2C)cc1Cl.O	NJ168	MIC	≤0.13 µg/mL
Cc1cccc(CSc2ccccn2)c1	NJ211	MIC	>12.8 µg/mL
CCCCCCCCO[C@H]1OC([C@@H](COCc2ccccc2)O[C@H]2O[C@H]([C@@H](O)CO)[C@@H](O)[C@@H]2O)[C@@H](OCc2ccccc2)[C@@H]1OCc1ccccc1	NJ3404	MIC	>128 µg/mL
Cc1cccc(C)c1Sc1ncnc2nc[nH]c12	NJ211	MIC	>12.8 µg/mL
CCCCCCCCO[C@@H]1O[C@@H](C(CO[C@@H]2O[C@@H]([C@H](O)CO)[C@H](O)[C@H]2O)OCc2ccccc2)[C@H](OCc2ccccc2)[C@H]1OCc1ccccc1	NJ3404	MIC	>128 µg/mL
COc1cccc2c1n([O-])c1cccc(OC)c1[n+]2=O	5 strains	MIC50	8 µg/mL

Repeating the first 4 entries:

{"structure": "CC[C@H]1OC(=O)[C@H](C)[C@@H](OC(=O)Cc2ccncc2)[C@H](C)[C@@H](O[C@@H]2O[C@H](C)C[C@H](N(C)C)[C@H]2O)C(C)(O)C[C@@H](C)/C(=N\\OCCCOc2ccccc2)[C@H](C)[C@@H](O)[C@]1(C)O", "strain": "20092 (clarithromycin-resistant)", "measure": "MIC", "value": "25 µg/mL"}
{"structure": "CO[C@H]1/C=C/O[C@@]2(C)Oc3c(C)c(O)c4c(O)c(c5c(c4c3C2=O)NC2(CCN(CC(C)C)CC2)N=5)=NC(=O)/C(C)=C\\C=C\\[C@H](C)[C@H](O)[C@@H](C)[C@@H](O)[C@@H](C)[C@H](OC(C)=O)[C@@H]1C", "strain": "1408-2", "measure": "MIC", "value": "0.25 µg/mL"}
{"structure": "Cc1cccc(CSc2ncnc3nc[nH]c23)c1", "strain": "NJ211", "measure": "MIC", "value": ">12.8 µg/mL"}
{"structure": "NC[C@H]1O[C@H](O[C@H]2[C@H](O)[C@@H](O[C@H]3O[C@H](CO)[C@@H](O)[C@H](N)[C@H]3O)[C@H](N)C[C@@H]2N)[C@H](O)[C@@H](O)[C@@H]1O", "strain": "25 isolates", "measure": "MIC50", "value": "8 µg/mL"}

Rows are shuffled and stem from different studies. Two numbers with a dash give a range or band.